Assays:
[1] = target: Sodium channel protein type 4 subunit alpha (Rattus norvegicus, UniProt P15390)
[2] = target: Sodium channel protein type 3 subunit alpha (Rattus norvegicus, UniProt P08104)
[3] = target: Sodium channel protein type 9 subunit alpha (Rattus norvegicus, UniProt O08562)

Chains of the proteins cited; added tags and fusions are not shown.
UniProt P15390, whole entry, looked up: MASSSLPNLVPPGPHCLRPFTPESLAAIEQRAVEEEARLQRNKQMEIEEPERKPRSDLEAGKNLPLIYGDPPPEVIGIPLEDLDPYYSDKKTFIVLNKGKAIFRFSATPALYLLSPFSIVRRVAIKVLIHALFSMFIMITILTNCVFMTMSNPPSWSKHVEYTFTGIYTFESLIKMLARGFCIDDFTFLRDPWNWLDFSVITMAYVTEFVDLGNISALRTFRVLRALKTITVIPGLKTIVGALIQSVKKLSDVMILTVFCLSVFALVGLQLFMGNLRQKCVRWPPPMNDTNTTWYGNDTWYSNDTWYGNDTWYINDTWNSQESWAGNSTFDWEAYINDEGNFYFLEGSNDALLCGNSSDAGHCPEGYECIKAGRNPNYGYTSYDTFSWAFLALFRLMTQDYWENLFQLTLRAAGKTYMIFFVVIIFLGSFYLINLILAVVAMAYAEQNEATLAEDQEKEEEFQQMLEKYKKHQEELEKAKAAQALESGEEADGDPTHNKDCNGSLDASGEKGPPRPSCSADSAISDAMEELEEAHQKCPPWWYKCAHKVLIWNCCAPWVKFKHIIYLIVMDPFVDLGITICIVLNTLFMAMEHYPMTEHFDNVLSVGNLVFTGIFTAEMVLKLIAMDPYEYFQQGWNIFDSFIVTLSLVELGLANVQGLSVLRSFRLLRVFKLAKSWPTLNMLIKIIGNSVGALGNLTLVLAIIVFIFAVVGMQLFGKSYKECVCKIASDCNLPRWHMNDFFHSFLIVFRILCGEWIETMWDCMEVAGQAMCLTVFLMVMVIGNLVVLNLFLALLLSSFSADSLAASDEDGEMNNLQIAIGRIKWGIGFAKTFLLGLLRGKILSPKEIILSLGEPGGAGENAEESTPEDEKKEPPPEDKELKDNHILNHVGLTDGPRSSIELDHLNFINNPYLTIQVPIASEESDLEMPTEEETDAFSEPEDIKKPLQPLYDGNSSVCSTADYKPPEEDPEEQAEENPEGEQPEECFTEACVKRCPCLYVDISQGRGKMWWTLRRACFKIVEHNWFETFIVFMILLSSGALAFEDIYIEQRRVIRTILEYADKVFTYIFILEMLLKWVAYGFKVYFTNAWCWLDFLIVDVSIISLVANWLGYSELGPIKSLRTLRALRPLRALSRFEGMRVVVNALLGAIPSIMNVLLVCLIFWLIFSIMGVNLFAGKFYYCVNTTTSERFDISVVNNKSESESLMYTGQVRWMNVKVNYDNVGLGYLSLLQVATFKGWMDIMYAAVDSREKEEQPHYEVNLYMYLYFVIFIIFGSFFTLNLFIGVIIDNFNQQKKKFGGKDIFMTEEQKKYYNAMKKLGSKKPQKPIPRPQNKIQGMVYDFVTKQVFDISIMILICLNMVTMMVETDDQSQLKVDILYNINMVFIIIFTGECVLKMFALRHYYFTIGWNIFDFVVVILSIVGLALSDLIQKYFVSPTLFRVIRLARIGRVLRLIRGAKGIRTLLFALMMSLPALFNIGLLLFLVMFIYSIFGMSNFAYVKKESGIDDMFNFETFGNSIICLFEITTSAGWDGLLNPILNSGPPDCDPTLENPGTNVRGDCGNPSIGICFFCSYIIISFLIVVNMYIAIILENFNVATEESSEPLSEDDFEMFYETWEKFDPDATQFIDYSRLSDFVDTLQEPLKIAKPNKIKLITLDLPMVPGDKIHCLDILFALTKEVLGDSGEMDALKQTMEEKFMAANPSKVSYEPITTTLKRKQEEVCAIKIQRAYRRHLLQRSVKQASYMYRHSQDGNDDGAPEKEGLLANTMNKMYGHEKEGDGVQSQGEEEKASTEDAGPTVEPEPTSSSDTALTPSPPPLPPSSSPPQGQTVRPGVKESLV
UniProt P08104, whole entry, looked up: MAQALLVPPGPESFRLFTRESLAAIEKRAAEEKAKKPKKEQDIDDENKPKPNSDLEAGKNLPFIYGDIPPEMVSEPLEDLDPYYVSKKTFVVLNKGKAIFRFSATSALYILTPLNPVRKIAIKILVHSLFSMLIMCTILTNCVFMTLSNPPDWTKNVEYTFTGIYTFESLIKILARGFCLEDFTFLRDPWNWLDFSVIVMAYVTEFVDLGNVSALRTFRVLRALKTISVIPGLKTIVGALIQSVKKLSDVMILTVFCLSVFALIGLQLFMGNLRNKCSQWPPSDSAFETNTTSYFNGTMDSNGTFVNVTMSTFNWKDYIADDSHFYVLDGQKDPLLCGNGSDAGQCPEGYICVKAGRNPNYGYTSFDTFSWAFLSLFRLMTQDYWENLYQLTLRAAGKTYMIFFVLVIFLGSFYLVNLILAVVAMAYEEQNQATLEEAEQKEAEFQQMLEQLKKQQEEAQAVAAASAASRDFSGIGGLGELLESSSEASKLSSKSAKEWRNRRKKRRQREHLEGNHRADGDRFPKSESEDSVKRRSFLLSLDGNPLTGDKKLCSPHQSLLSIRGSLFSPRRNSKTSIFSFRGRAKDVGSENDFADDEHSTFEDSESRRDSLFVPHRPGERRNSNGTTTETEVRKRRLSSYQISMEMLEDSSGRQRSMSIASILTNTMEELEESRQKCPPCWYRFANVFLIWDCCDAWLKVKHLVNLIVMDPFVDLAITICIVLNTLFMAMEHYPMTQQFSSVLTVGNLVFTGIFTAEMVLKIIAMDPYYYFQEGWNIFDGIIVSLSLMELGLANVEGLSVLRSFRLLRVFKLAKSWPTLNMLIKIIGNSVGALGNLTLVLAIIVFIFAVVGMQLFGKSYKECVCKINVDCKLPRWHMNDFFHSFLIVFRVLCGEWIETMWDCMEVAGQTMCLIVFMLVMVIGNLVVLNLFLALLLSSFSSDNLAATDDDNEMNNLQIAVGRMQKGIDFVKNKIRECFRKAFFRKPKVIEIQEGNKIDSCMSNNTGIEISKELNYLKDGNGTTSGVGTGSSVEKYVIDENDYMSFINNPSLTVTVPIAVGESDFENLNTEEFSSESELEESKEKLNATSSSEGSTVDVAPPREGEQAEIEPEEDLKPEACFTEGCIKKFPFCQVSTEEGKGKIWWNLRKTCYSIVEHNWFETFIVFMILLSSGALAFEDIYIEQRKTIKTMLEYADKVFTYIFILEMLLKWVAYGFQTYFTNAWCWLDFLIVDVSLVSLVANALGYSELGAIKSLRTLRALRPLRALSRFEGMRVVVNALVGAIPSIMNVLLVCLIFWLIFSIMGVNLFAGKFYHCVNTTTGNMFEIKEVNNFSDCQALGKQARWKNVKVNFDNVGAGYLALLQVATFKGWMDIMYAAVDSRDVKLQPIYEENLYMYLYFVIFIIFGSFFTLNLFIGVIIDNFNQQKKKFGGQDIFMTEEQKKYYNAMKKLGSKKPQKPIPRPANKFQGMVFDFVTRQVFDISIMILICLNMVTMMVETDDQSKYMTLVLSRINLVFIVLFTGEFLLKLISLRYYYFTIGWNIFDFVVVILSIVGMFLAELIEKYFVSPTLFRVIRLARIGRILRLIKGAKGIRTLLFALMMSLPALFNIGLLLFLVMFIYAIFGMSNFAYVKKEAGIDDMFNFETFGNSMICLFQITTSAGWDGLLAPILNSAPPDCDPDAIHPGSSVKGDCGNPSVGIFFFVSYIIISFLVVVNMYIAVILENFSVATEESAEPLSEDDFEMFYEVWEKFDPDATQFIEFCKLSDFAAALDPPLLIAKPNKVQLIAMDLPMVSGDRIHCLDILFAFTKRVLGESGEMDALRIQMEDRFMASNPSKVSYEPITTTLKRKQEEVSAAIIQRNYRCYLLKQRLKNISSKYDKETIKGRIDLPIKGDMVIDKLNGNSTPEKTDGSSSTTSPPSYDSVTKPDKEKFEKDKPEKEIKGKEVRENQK
UniProt O08562, whole entry, looked up: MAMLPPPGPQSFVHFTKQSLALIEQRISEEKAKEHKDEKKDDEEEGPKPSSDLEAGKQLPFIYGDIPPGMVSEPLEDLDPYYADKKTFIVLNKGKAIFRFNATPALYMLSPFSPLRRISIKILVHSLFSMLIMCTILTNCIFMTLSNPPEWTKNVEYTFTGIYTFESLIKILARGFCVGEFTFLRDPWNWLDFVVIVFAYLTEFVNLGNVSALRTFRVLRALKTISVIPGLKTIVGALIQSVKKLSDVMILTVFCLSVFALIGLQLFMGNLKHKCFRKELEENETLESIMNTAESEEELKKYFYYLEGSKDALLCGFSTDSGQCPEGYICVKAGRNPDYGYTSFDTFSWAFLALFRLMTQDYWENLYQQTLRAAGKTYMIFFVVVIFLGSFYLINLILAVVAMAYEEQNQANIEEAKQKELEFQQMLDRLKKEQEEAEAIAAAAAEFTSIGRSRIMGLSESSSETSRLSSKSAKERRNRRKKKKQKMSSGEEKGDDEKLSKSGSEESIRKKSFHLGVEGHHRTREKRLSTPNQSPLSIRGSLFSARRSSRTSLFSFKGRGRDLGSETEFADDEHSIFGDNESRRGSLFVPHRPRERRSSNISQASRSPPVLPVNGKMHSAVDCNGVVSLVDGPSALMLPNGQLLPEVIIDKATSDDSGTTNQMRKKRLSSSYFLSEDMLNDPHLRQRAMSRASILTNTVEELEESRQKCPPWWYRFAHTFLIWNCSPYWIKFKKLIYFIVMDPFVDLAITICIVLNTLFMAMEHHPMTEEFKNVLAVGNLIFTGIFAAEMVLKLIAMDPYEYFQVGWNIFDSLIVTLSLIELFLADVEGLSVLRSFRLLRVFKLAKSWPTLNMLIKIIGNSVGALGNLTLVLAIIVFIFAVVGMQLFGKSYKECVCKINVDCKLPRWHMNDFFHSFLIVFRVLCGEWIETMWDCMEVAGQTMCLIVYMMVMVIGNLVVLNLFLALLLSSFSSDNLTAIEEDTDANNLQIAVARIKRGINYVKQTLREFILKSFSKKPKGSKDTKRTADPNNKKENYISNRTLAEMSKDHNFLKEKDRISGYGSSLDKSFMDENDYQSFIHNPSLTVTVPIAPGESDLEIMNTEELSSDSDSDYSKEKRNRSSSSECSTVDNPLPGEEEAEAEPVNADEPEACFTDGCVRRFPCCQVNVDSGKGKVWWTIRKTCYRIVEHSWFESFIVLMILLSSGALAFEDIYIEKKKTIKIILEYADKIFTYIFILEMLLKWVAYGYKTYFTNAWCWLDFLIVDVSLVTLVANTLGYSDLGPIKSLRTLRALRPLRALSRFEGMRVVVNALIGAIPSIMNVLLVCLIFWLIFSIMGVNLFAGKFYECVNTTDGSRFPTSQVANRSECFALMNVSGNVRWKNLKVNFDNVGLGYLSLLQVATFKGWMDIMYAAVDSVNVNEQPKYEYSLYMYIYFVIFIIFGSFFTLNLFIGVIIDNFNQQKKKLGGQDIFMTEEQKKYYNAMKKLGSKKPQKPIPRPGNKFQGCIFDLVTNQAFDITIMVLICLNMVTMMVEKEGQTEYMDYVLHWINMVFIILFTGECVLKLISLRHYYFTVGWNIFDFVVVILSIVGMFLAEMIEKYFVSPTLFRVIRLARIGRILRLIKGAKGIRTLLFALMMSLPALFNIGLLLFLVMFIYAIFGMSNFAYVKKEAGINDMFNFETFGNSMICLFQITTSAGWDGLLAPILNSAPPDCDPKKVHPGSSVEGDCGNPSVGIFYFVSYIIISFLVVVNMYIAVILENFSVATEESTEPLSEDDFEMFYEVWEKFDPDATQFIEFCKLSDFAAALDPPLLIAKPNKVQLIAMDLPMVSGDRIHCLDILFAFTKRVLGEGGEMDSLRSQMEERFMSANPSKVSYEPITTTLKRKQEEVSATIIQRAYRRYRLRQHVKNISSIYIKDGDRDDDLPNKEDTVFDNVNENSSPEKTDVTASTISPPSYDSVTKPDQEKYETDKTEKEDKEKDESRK

| Structure (SMILES) | IC50 [1] | IC50 [2] | IC50 [3] |
| --- | --- | --- | --- |
| CC(=O)N[C@@H](CCCCN)C(=O)N[C@@H](Cc1c[nH]c2ccccc12)C(=O)N[C@H]1CCCCNC(=O)C[C@@H](C(=O)N[C@@H](CCCN=C(N)N)C(N)=O)NC(=O)[C@H](Cc2cnc[nH]2)NC(=O)[C@H](CC(=O)O)NC(=O)[C@H](CCCN=C(N)N)NC1=O | 204 µM | – | – |
| CC(=O)N[C@@H](CCCCN)C(=O)N[C@@H](Cc1c[nH]c2ccccc12)C(=O)N[C@H]1CC(=O)NCCCC[C@@H](C(=O)N[C@@H](CCCN=C(N)N)C(N)=O)NC(=O)[C@H](Cc2cnc[nH]2)NC(=O)[C@H](CC(=O)O)NC(=O)[C@H](CCCN=C(N)N)NC1=O | – | 150 µM | 177 µM |

From BindingDB's records for 21962108
